Data from ChEMBL document CHEMBL5390215, “SARS-CoV-2 papain-like protease (PLpro) inhibitory and antiviral activity of small molecule derivatives for drug leads” (Bioorg Med Chem Lett, 2023).

Target: Replicase polyprotein 1ab (Severe acute respiratory syndrome-related coronavirus, UniProt P0C6X7)
Test: Inhibition of SARS-CoV-1 papain-like protease

## CNCc1ccc(C)c(C(=O)N[C@H](C)c2cccc3ccccc23)c1
  IC50: 360 nM
